A mixed list of measured activities; the numbers were collected in NIAID ChemDB.

All rows: whole-cell or culture tests; species: Mycobacterium tuberculosis

Blank or dashed fields: not listed here. a–b is a range or a potency band. Lines come from different laboratories, so protocols vary. Percent inhibition refers to the dose given; in toxicity tests it is the harm to the cells. ECn: concentration that inhibits the pathogen or its effect by n%. MIC bound comes from a single tested concentration. A number after MIC or MFC names an inhibition level or a share of isolates.

smiles | tested at | read-out | method | strain | value
CCN1C2=NCCN2S(=O)(=O)c2ccccc21 | 6.25 µg/mL | inhibition | - | H37Rv | -15%
Fc1cccc(CNCC2CCCC(CNCc3cccc(F)c3)C2)c1 | 20 µM | inhibition | - | H37Rv | 0%
O=C(Nc1ncn[nH]1)c1ccccc1O | - | MIC | - | My 331/88 | 500 µM
N#Cc1ccc(Nc2nc(Oc3cccc4cccnc34)nc(N3CCN(c4ccccc4F)CC3)n2)cc1C(F)(F)F | - | MIC | BACTEC | H37Rv | >6.25 µg/mL
CCC/C=C/C=C/[C@@H]1C[C@@H](O)[C@@H](O)C(=O)[C@H]1CO | 12.5 µg/mL | inhibition | BACTEC | H37Rv | 13%
Cc1c(N2CCC(n3c(=O)[nH]c4cc(Cl)ccc43)CC2)c([N+](=O)[O-])cc2c(=O)c(C(=O)O)cn(C3CC3)c12 | - | MIC | - | H37Rv | 2.89 µM
Cc1ccc(-c2nc(NCCCN3CCOCC3)[nH]c(=O)c2C#N)cc1 | - | MIC | - | H37Ra | >50 µg/mL
CC(=O)Nc1ccc(/C=N/NC(N)=S)cc1F | - | MIC | - | Ethambutol-resistant | 0.2 µg/mL
CC(C)=CCC/C(C)=C/CC/C(C)=C/CO | - | MIC | resazurin | H37Rv | 8 µg/mL
Cc1ccc(-c2nc(N3CCc4ccccc4C3)[nH]c(=O)c2C#N)cc1 | - | MIC | - | H37Ra | >50 µg/mL
COc1ccc(NCCN(C)C)c2c(=O)c3ccccc3sc12 | - | MIC bound | BACTEC | H37Rv | ≤12.5 µg/mL
N#Cc1ccc(Nc2nc(Oc3cccc4cccnc34)nc(N3CCN(c4ccccc4)CC3)n2)cc1C(F)(F)F | - | MIC96 | agar | H37Rv | 500 µg/mL
Clc1cccc(Cl)c1CNCC1CCCC(CNCc2c(Cl)cccc2Cl)C1 | 20 µM | inhibition | - | H37Rv | 0%
COC(=O)CC[C@@H](C)[C@H]1CCC2C3C(C[C@H](O)[C@@]21C)[C@@]1(C)CC[C@H](n2cc(CNCCNc4ccnc5cc(Cl)ccc45)nn2)C[C@H]1C[C@H]3O | - | MIC90 | resazurin | H37Rv | 8.8 µM
Nc1ccc(-c2nnc(NC3CCCCC3)s2)cc1 | 6.25 µg/mL | inhibition | BACTEC | H37Rv | 41%
Cc1ccc(-c2nc(NC3CCCCCC3)[nH]c(=O)c2C#N)cc1 | - | MIC | - | H37Ra | 25–50 µg/mL
O=c1cc(-c2ccccc2O)oc2ccccc12 | - | MIC | - | H37Rv | >12.5 µg/mL
FC(F)(F)c1ccccc1CNCC1CCCC(CNCc2ccccc2C(F)(F)F)C1 | 20 µM | inhibition | - | H37Rv | 0%
CCOCCSc1nc(N)c2c3c(sc2n1)CC(C(C)(C)C)CC3 | - | MIC | MTT / visual reading | H37Rv | >100 µg/mL
CN1CCN(c2ccc(CNCC3CCCC(CNCc4ccc(N5CCN(C)CC5)cc4)C3)cc2)CC1 | 20 µM | inhibition | - | H37Rv | 0%
Nc1ccccc1/C=C/C(=O)c1cc(Br)ccc1O | 12.5 µg/mL | inhibition | - | H37Rv | 8%
CCC(=O)CSc1nc(N)c2c3c(sc2n1)CC(C(C)(C)C)CC3 | - | MIC | MTT / visual reading | H37Rv | >200 µg/mL
COc1cc2c(cc1OC)C(OC)N(C)c1c-2ccc2cc3c(cc12)OCO3 | - | MIC bound | BACTEC | H37Rv | >12.5 µg/mL
C=C[C@](C)(O)CC[C@@H]1[C@@]2(C)CCCC(C)(C)[C@@H]2CC[C@@]1(C)O | - | MIC | resazurin | H37Rv | 6 µg/mL
C/C(=N\NC(=O)C(N)=O)C(CC(C(=O)Nc1ccccc1C)/C(C)=N/NC(=O)C(N)=O)C(=O)Nc1ccccc1C | 12.5 µg/mL | inhibition | BACTEC | H37Rv | 26%
C=CC(C)(CCC=C(C)C)OC(C)=O | 6.25 µg/mL | inhibition | resazurin | H37Rv | 22%
O=C(/C=C/c1ccccc1)c1ccc(Br)cc1O | - | MIC | - | H37Rv | >12.5 µg/mL
CC(=O)O[C@H]1CC(=O)OC(C)(C)[C@@H]2CC(=O)[C@]3(C)[C@H](CC[C@@]4(C)[C@H](c5ccoc5)OC(=O)[C@H]5O[C@]543)[C@@]12C | 12.5 µg/mL | inhibition | BACTEC | H37Rv | -24%
C=CC(C)(CC/C=C(\C)CC/C=C(\C)CCC=C(C)C)OC(C)=O | 6.25 µg/mL | inhibition | resazurin | H37Rv | 75%
CC(C)(C)C1CCc2c(sc3nc(SCc4cscn4)nc(N)c23)C1 | - | MIC | MTT / visual reading | H37Rv | 50 µg/mL
CC[C@H]1OC(=O)[C@H](C)[C@@H](O[C@H]2C[C@@](C)(OC)[C@@H](O)[C@H](C)O2)[C@H](C)[C@@H](O[C@@H]2O[C@H](C)C[C@H](N(C)C)[C@H]2O)[C@](C)(OC)C[C@@H](C)C(=O)[C@H](C)[C@@H](O)[C@]1(C)O | - | MIC | - | 41494 | >4 µg/mL
O=c1cc(-c2cccc(I)c2)oc2ccccc12 | - | MIC | - | H37Rv | >12.5 µg/mL
Cl.Cl.NOCc1cnccn1 | - | MIC bound | BACTEC | H37Rv | >12.5 µg/mL
COc1ccc(/C=C/C(=O)c2ccccc2F)cc1 | - | MIC | - | H37Rv | >12.5 µg/mL
COC(=O)/C=C(C)/C=C/c1cc(C(C)=O)c(C)o1 | 12.5 µg/mL | inhibition | BACTEC | H37Rv | 12%
CCN(CC)CCCC(C)Nc1nc(-c2cccnc2)c(C#N)c(=O)[nH]1 | - | MIC | - | H37Ra | >50 µg/mL
CO[C@H]1/C=C/O[C@@]2(C)Oc3c(C)c(O)c4c(=O)c(c5oc6cc(N7CCN(CC(C)C)CC7)cc(=O)c6nc5c4c3=C2O)NC(=O)/C(C)=C\C=C\[C@H](C)[C@H](O)[C@@H](C)[C@@H](O)[C@@H](C)[C@H](OC(C)=O)[C@@H]1C | - | MIC | - | Watanabe | 4 µg/mL
N#Cc1c(-c2cccnc2)nc(NC2CCCCCC2)[nH]c1=O | - | MIC | - | H37Ra | >50 µg/mL
Cc1ccc(NP2(Nc3ccc(C)cc3)=NP(Nc3ccc(C)cc3)(N3CC3)=NP(Nc3ccc(C)cc3)(N3CC3)=N2)cc1 | - | MIC | - | PZA-R | 6.4 µg/mL
CC(C)c1c(O)ccc2c1CCC1C(C)(C)CCC[C@]21C | 12.5 µg/mL | inhibition | - | H37Rv | 0%
O=C(O)c1cn(C2CC2F)c2c(Cl)c(N3CC4CCCNC4C3)c(F)cc2c1=O | - | MIC | - | 40 (RFP-susceptible) | 0.025 µg/mL
Cc1c(N2CCn3cc(C(=O)O)nc3C2)c([N+](=O)[O-])cc2c(=O)c(C(=O)O)cn(C(C)(C)C)c12 | - | MIC | - | H37Rv | 26.63 µM
NC(=O)/C(=N\NC(=O)C[n+]1ccccc1)C1NC(=O)NC1=O.[Cl-] | - | MIC bound | BACTEC | H37Rv | >12.5 µg/mL
O=c1cc(-c2ccccc2)oc2cc(Cl)ccc12 | - | MIC | - | H37Rv | >12.5 µg/mL
CCC1CN(c2c(F)cc3c(=O)c(C(=O)O)cn(C4CC4)c3c2OC)CCN1 | - | MIC | - | 50 (RFP-resistant) | 0.25 µg/mL
CN(C)c1ccc(-c2nc(NCc3ccccc3)[nH]c(=O)c2C#N)cc1 | - | MIC | - | H37Ra | >50 µg/mL
O=C(Nc1ncn[nH]1)c1cc(Br)ccc1O | - | MIC | - | My 331/88 | 500 µM
CC(=O)/C(N=Nc1ccc(-c2nnc(NCc3ccccc3)s2)cc1)=C(\C)O | 6.25 µg/mL | inhibition | BACTEC | H37Rv | 0%
COc1cc2c(cc1OC)-c1c(C)c3ccc(OC)c(NCCO)c3c[n+]1CC2.[Cl-] | - | MIC | BACTEC | H37Rv | ≥12.5 µg/mL
COc1ccc(-c2cc(=O)c3ccc(I)cc3o2)cc1 | - | MIC | - | H37Rv | >12.5 µg/mL
CC(=O)Oc1c(C/C=C(\C)CC/C=C(\C)CCC=C(C)C)c(=O)oc2ccccc12 | - | EC50 | - | H37Rv | >12.5 µg/mL
COC(=O)c1nc(N)nc(C(=O)OC)c1C(=O)c1ccco1 | 12.5 µg/mL | inhibition | BACTEC | H37Rv | 0%
CO[C@H]1/C=C/O[C@@]2(C)Oc3c(C)c(O)c4c(O)c(c(/C=N/N5CCN(C)CC5)c(O)c4c3C2=O)NC(=O)/C(C)=C\C=C\[C@H](C)[C@H](O)[C@@H](C)[C@@H](O)[C@@H](C)[C@H](OC(C)=O)[C@@H]1C | - | MIC | - | 41494 | ≥2 µg/mL
C=C1C(=O)OCC2C(C(=O)O)=CC3C(C)C(C)=CC123 | - | MIC | BACTEC | H37Rv | ≥12.8 µg/mL
Cc1ccc2c(c1)nc1cc(Nc3ccc(Cl)cc3)c(=NC3CCCCCCC3)cc-1n2-c1ccc(Cl)cc1 | - | MIC | - | Kurono | 0.1 µg/mL
CC(=O)NC1C(OCc2ccccc2)OC(CO)C(O)C1OC(C)C(=O)NC(C(=O)NC(CCC(=O)NCCCCNc1c2ccccc2nc2cccc([N+](=O)[O-])c12)C(N)=O)C(C)C | 6.25 µg/mL | inhibition | resazurin | H37Rv | 72%
O=C(Nc1cnccn1)c1cc(F)ccc1O | - | MIC | - | My 331/88 | 125 µM
Cc1c(N2CCN(Cc3ccc4c(c3)OCO4)CC2)c([N+](=O)[O-])cc2c(=O)c(C(=O)O)cn(-c3ccc(F)cc3F)c12 | - | MIC | - | H37Rv | 21.61 µM
C[C@@H]1CN(c2c(F)c(N)c3c(=O)c(C(=O)O)cn(C4CC4)c3c2F)C[C@H](C)N1 | - | MIC | - | 5 strains (ofloxacin-susceptible) | 0.16–0.32 µg/mL
C=C1CCCC(C)(C)[C@@H]1CC/C(C)=C/CC/C(C)=C/COC1CCCCO1 | 6.25 µg/mL | inhibition | resazurin | H37Rv | 32%
COc1ccc(N2CCN(c3nc(Nc4ccc(C#N)c(C(F)(F)F)c4)nc(Oc4cccc5cccnc45)n3)CC2)cc1 | - | MIC99 | agar | H37Rv | 6.25 µg/mL
O=C(Nc1cnccn1)c1ccc(Cl)cc1O | - | MIC | - | My 331/88 | 16 µM
CCCNc1nc(-c2ccc(N(C)C)cc2)c(C#N)c(=O)[nH]1 | - | MIC | - | H37Ra | >50 µg/mL
Cc1csc(NC(=O)c2cc(Cl)ccc2O)n1 | - | MIC | - | My 331/88 | 62.5 µM
CN(C)/N=N/c1[nH]cnc1C(N)=O.[Cl][Cu][Cl] | 12.5 µg/mL | inhibition | BACTEC | H37Rv | 99%
Cc1c(N2CC3CCCNC3C2)c(F)cc2c(=O)c(C(=O)O)cn([C@@H]3C[C@@H]3F)c12 | - | MIC | - | 43 (RFP-susceptible) | 0.05 µg/mL
CCOC(=O)[C@@H](C)Sc1nc(N)c2c3c(sc2n1)CC(C(C)(C)C)CC3 | - | MIC | MTT / visual reading | H37Rv | 12.5 µg/mL
Cc1c(N2CCC3(CC2)OCCO3)c([N+](=O)[O-])cc2c(=O)c(C(=O)O)cn(-c3ccc(F)cc3F)c12 | - | MIC | - | H37Rv | 3.11 µM
CC(C)N=c1cc2n(-c3ccc(Cl)cc3)c3ccccc3nc-2cc1Nc1ccc(Cl)cc1 | - | MIC | broth dilution / resazurin | MDR1 | 1 µg/mL
N#Cc1ccc(Nc2nc(Oc3cccc4cccnc34)nc(N3CCOCC3)n2)cc1C(F)(F)F | - | MIC98 | agar | H37Rv | 100 µg/mL
CNc1nnc(-c2ccc(N=N/C(C(C)=O)=C(/C)O)cc2)s1 | 6.25 µg/mL | inhibition | BACTEC | H37Rv | 46%
CC(=O)N=C1N(/C=C2/C(=O)Oc3ccccc3C2=O)C(=O)/C(=C\c2cccc([N+](=O)[O-])c2)N1C | 12.5 µg/mL | inhibition | BACTEC | H37Rv | 69%
C=C[C@](C)(O)CC[C@H]1C(=C)CC[C@H]2C(C)(C)CCC[C@]12C | 6.25 µg/mL | inhibition | resazurin | H37Rv | 29%
COc1ccc(/C=C/C(=O)c2ccc(OC)cc2O)cc1 | - | MIC | - | H37Rv | >12.5 µg/mL
Fc1ccc(Nc2nnc(-c3ccc(NC(=S)Nc4ccccc4)cc3)s2)cc1 | 6.25 µg/mL | inhibition | BACTEC | H37Rv | 0%
O=C1NC(CN2CCCC(O)C2)C(=O)NC1CN1CCCC(O)C1 | 12.5 µg/mL | inhibition | BACTEC | H37Rv | 24%
CCCCCCCCNc1nc(-c2ccc(N(C)C)cc2)c(C#N)c(=O)[nH]1 | - | MIC | - | H37Ra | >50 µg/mL
COc1cc2oc3ccccc3c(=O)c2cc1CSc1ccccc1N | - | MIC bound | BACTEC | H37Rv | >12.5 µg/mL
Fc1cc(F)cc(CNCC2CCCC(CNCc3cc(F)cc(F)c3)C2)c1 | 20 µM | inhibition | - | H37Rv | 0%
COC1=CC23CC(CC(c4cc(OC)c(OC)c(OC)c4)C2C)OC3=CC1=O | - | MIC | BACTEC | H37Rv | ≥12.5 µg/mL
Cc1cc(NC(=O)c2ccccc2O)no1 | - | MIC | - | My 331/88 | 16 µM
C#CC(C)(O)C=C | - | MIC bound | resazurin | H37Rv | >6.25 µg/mL
O=C(Nc1ncn[nH]1)c1cc(F)ccc1O | - | MIC | - | My 331/88 | 500 µM

For reference, 5 entries again:

{"smiles": "O=C(Nc1cnccn1)c1ccc(Cl)cc1O", "read-out": "MIC", "strain": "My 331/88", "value": "16 µM"}
{"smiles": "COc1ccc(NCCN(C)C)c2c(=O)c3ccccc3sc12", "read-out": "MIC bound", "method": "BACTEC", "strain": "H37Rv", "value": "≤12.5 µg/mL"}
{"smiles": "Cc1ccc(-c2nc(NC3CCCCCC3)[nH]c(=O)c2C#N)cc1", "read-out": "MIC", "strain": "H37Ra", "value": "25–50 µg/mL"}
{"smiles": "COc1cc2c(cc1OC)C(OC)N(C)c1c-2ccc2cc3c(cc12)OCO3", "read-out": "MIC bound", "method": "BACTEC", "strain": "H37Rv", "value": ">12.5 µg/mL"}
{"smiles": "COC(=O)/C=C(C)/C=C/c1cc(C(C)=O)c(C)o1", "tested at": "12.5 µg/mL", "read-out": "inhibition", "method": "BACTEC", "strain": "H37Rv", "value": "12%"}